A mixed list of measured activities; the numbers were collected in NIAID ChemDB.

All rows: whole-cell or culture tests; agent: HIV-1

Conditions beyond the fields shown may differ between rows.

structure,read-out,cell line,method,strain or isolate,changes,value
COc1cc2oc(=O)c(-c3ccc(O)cc3O)cc2c(OC)c1CC=C(C)C,EC50,MT-4,MTT,IIIB,-,>20 µg/mL
OC[C@H]1O[C@@H](Oc2cc(O)c3c(c2)O[C@H](c2ccc(O)c(O)c2)[C@@H](O)C3)[C@H](O)[C@@H](O)[C@@H]1O,EC50,C8166,syncytia,IIIB,-,47.86 µg/mL
CNC(=O)[C@@H](NC(=O)[C@H](OCc1ccccc1)[C@H](O)[C@@H](O)[C@@H](OCc1ccccc1)C(=O)N[C@H]1c2ccccc2C[C@H]1O)C(C)C,EC50,MT-4,cytopathic effect / XTT,-,-,0.2 µM
Nc1nc(N)c(Cc2c(N)nc(N)nc2OCCOCP(=O)(O)O)c(OCCOCP(=O)(O)O)n1,EC50,CEM,syncytia,IIIB,-,80 µM
CCCc1cc(=O)oc2c3c(c4c(c12)OC(C)(C)C=C4)O[C@@H](C)[C@H](C)[C@@H]3O,EC50,PBMC,RT activity,CLADE F,-,0.1 µM
CCc1ccc(-n2c(C)nnc2SCC(=O)Nc2ccc(C)cc2Cl)c2ccccc12,EC50,HeLa,-,-,Y188L,0.11 µM
O=c1[nH]cnc2c1ncn2[C@H]1CC[C@@H](CO)O1,EC50,PBMC,p24,Recombinant,RT-A62V,0.3 µM
COc1cnc2c(-n3c(C)nnc3SCC(=O)Nc3ccc(S(N)(=O)=O)cc3Cl)cccc2c1,EC50,HeLa,-,-,Y188L,0.372 µM
Nc1nc(N)c(C=O)c(OCCOCP(=O)(O)O)n1,EC50,CEM,syncytia,IIIB,-,4.5 µM
O=c1[nH]cnc2c1ncn2[C@H]1CC[C@@H](CO)O1,EC50,CEM,syncytia,HXB2,-,1.7 µg/mL
Nc1nc2c(c(F)cn2C[C@H](CF)OCP(=O)(O)O)c(=O)[nH]1,EC50,PBMC,luciferase,NL4-3,-,>100 µM
Cc1ccccc1Cc1cccc(C(=O)CC(=O)C(=O)O)c1,EC50,-,p24,-,INTG-S153Y N155S,14 µM
CSc1ccccc1NC(=O)CSc1nnnn1-c1ccccc1SC,EC50,HeLa CD4,β-galactosidase,NL4.3-XCS,K103N (NVP),0.789 µM
COc1ccc(-c2coc3cc(O)ccc3c2=O)cc1,EC50,MT-4,MTT,IIIB,-,>100 µg/mL
CC(C)[C@H](NC(=O)[C@H](OCc1ccccc1)[C@H](O)[C@@H](O)[C@@H](OCc1ccccc1)C(=O)NC1c2ccccc2CC1O)C(=O)NCc1ccccn1,EC50,MT-4,cytopathic effect / XTT,-,-,0.2 µM
CCCCCOC(=O)C[C@H](NP(=O)(CO[C@@H](CF)Cn1ccc2c(=O)[nH]c(N)nc21)Oc1ccccc1)C(=O)OCCCCC,EC50,PBMC,luciferase,NL4-3,-,4.8 µM
Cc1ccc(NC(=O)CSc2nnc(C)n2-c2cc(C)c(C)c3ccccc23)c(Cl)c1,EC50,HeLa,-,-,Y188L,0.158 µM
Cc1cn([C@H]2C[C@H](N=[N+]=[N-])[C@@H](CO)O2)c(=O)[nH]c1=O,EC50,PBMC,p24,Recombinant,RT-M184V,5–10 µM
c1ccc(CNc2nc(-c3cccnc3)cs2)cc1,EC50,HeLa CD4,β-galactosidase,NL4.3-XCS,M184V (3TC-resistant),0.662 µM
CC(C)OC(=O)[C@H](C)N[P@](=O)(CO[C@H](C)Cn1cnc2c(N)ncnc21)Oc1ccccc1,EC50,TZM-bl,luciferase,NL4-3,-,0.003 µM
CC[C@H](C)[C@H](NC(=O)[C@H](OCc1ccccc1)[C@H](O)[C@@H](O)[C@@H](OCc1ccccc1)C(=O)N[C@H](C(=O)NC)[C@@H](C)CC)C(=O)NC,EC50,MT-4,cytopathic effect / XTT,-,-,1 µM
C[C@H](Cn1cnc2c(N)ncnc21)OCP(=O)(O)O,EC50,PBMC + H-PBMC,-,IIIB,-,0.4 µM
Cc1ccc(NC(=O)CSc2nnc(C(F)(F)F)n2-c2ccccc2)c(Br)c1,EC50,HeLa,-,-,-,0.0005 µM
Nc1nc2c(ccn2C[C@@H](CF)OCP(=O)(O)O)c(=O)[nH]1,EC50,PBMC,luciferase,NL4-3,-,>100 µM
CCc1nnc(SCC(=O)Nc2ccc(C)cc2Br)n1-c1ccccc1,EC50,HeLa,-,-,-,0.0001 µM
O=C(NCc1ccc(F)cc1)c1nc(N2CCCCS2(=O)=O)c2cccnc2c1O,EC95,Macrophage,p24,BaL,-,0.035 µM
Nc1nc2c(c(F)cn2C[C@@H](CF)OCP(=O)(O)O)c(=O)[nH]1,EC50,PBMC,luciferase,BaL,-,>100 µM
COc1ccc2c(c1)N(C(=O)OC(C)C)[C@@H](CSC)C(=S)N2,EC50,CEM,syncytia,HXB2,RT-M41L T215Y,0.001 µg/mL
O=C(N[C@H]1c2ccccc2C[C@H]1O)[C@H](OCc1ccc(F)cc1)[C@H](O)[C@@H](O)[C@@H](OCc1ccc(F)cc1)C(=O)N[C@H]1c2ccccc2C[C@H]1O,EC50,MT-4,cytopathic effect / XTT,-,-,0.2 µM
Nc1nc(=O)n([C@@H]2CO[C@H](CO)S2)cc1F,EC50,PBMC,p24,HxB2D(RT-D67G),RT-D67G,6.5 µM
Cc1cn([C@H]2C[C@H](N=[N+]=[N-])[C@@H](CO)O2)c(=O)[nH]c1=O,EC50,HeLa CD4,β-galactosidase,NL4.3-XCS,M184V (3TC-resistant),0.021 µM
CCCc1cc(=O)oc2c3c(c4c(c12)OC(C)(C)C=C4)O[C@H](C)[C@@H](C)[C@@H]3O,EC50,CEM + CEM-SS,cytopathic effect / XTT,HEPT-resistant (RT P236L),RT-P236L,0.6 µM
Cc1ccnc2c1NC(=O)c1cccnc1N2C1CC1,EC50,CEM,syncytia,HXB2,RT-M41L T215Y,0.2 µg/mL
Cc1nnc(SCC(=O)Nc2ccccc2Br)n1-c1cccc2ccccc12,EC50,HeLa,-,-,Y188L,0.724 µM
CCOCn1c(Cc2ccccc2)c(C(C)C)c(=O)[nH]c1=O,EC90,MT-4,cytopathic effect / MTT,IIIB,-,0.06 µM
CC(C)Nc1cccnc1N1CCN(C(=O)c2cc3cc(NS(C)(=O)=O)ccc3[nH]2)CC1,EC50,CEM,syncytia,HXB2,RT-M41L T215Y,0.013 µg/mL
O=S(=O)(c1ccccc1)c1ccccc1,EC50,CEM + CEM-SS,XTT,Dihydrocostatolide-resistant (RT-L100I),RT-L100I,53.1 µM
O=c1c(-c2ccc(O)cc2)coc2cc(O)cc(O)c12,EC50,MT-4,MTT,IIIB,-,>20 µg/mL
Nc1ccn([C@H]2CC[C@@H](CO)O2)c(=O)n1,EC50,PBMC,p24,HxB2D(RT-D67G),RT-D67G,0.24 µM
Cc1nnc(SCC(=O)Nc2ccccc2Br)n1-c1ccc(N(C)C)c2ccccc12,EC50,HeLa,-,-,Y188L,0.24 µM
CO[C@H]1O[C@@H](n2ccc(=O)[nH]c2=O)C[C@@H]1N=[N+]=[N-],EC50,MT-2,p24,LAI WT,-,>200 µM
CC1(C)C=Cc2cc(C(=O)CC(=O)c3ccc(O)cc3)c(O)cc2O1,EC50,MT-4,cytopathic effect / MTT,IIIB,-,>100 µg/mL
Cc1cn([C@H]2C[C@H](N=[N+]=[N-])[C@@H](CO)O2)c(=O)[nH]c1=O,EC50,PBMC,p24,HXB2,-,0.013 µM
Nc1nc(=O)n([C@H]2CO[C@@H](CO)S2)cc1F,EC50,PBMC,p24,HXB2D (RT-K65R),RT-K65R,6.5 µM
CC(=O)c1cc(O)c(O)c(O[C@@H]2O[C@H](CO)[C@@H](O)[C@H](O)[C@H]2O)c1,EC50,C8166,syncytia,IIIB,-,46.25 µg/mL
Cc1nc2ccccc2n1S(=O)(=O)c1cc(Br)ccc1Br,EC50,HeLa CD4,β-galactosidase,NL4.3-XCS,M184V (3TC-resistant),0.631 µM
Nc1ccn([C@@H]2CO[C@H](CO)S2)c(=O)n1,EC50,PBMC,p24,HXB2D,-,1 µM
CC(C)=CCc1cc(C2CC(=O)c3ccc(O)c(CC=C(C)C)c3O2)ccc1O,EC50,MT-4,MTT,IIIB,-,>100 µg/mL
Nc1nc(N)c2ncn([C@H]3CO[C@@H](CO)O3)c2n1,EC50,Jurkat cells,-,IIIB,-,1.37 µM
CC1(C)CCc2c(cc(O)c3c2OC(c2ccc(O)c(O)c2)CC3=O)O1,EC50,MT-4,MTT,IIIB,-,>10 µg/mL
N#Cc1c(N)nc(N)nc1OCCOCP(=O)(O)O,EC50,CEM,syncytia,IIIB,-,11 µM
Nc1ncnc2c1ncn2CCOCP(=O)(O)O,EC50,CEM,-,IIIB,-,6 µM
Cc1ccnc2c1NC(=O)c1cccnc1N2C1CC1,EC50,CEM + CEM-SS,XTT,3TC-resistant (RT M184V),RT-M184V,0.01 µM
Nc1nc2c(ccn2C[C@H](CF)OCP(=O)(O)O)c(=O)[nH]1,EC50,TZM-bl,luciferase,NL4-3,-,>100 µM
C1CNCCNCCCN(CCCN2CCCNCCNCCCNCC2)CCNC1,EC50,MT-4,cytopathic effect / MTT,NL4-3,-,0.161 µg/mL
O=C(/C=C/c1ccc(O)c(O)c1)OC1C[C@@](O)(C(=O)O)C[C@H](O)[C@@H]1O,EC50,C8166,syncytia,IIIB,-,85.11 µg/mL
CC(C)=CCc1c(-c2ccc(O)cc2O)oc2c3c(cc(O)c2c1=O)OC(c1c(O)cc(O)c2c(=O)c(CC=C(C)C)c(-c4ccc(O)cc4O)oc12)C1C3C=C(C)CC1(C)C,EC50,MT-4,cytopathic effect / MTT,IIIB,-,>20 µg/mL
COC(=O)C(N)(O)Cc1c[nH]c2ccccc12,EC50,C8166,syncytia,IIIB,-,83.32 µg/mL
CC(C)=CCc1c(O)ccc(-c2coc3cc(O)cc(O)c3c2=O)c1O,EC50,MT-4,MTT,IIIB,-,>100 µg/mL
O=C1N(Cc2ccc(CO)cc2)[C@H](Cc2ccccc2)[C@H](O)[C@@H](O)[C@@H](Cc2ccccc2)N1Cc1ccc(CO)cc1,EC50,PBMC,p24,RF,-,<0.018 µM
Cc1cn([C@H]2C[C@H](N=[N+]=[N-])[C@@H](CO)O2)c(=O)[nH]c1=O,EC50,CEM + CEM-SS,XTT,NL4-3 1 (RT K101E),RT-K101E,0.002 µM
COc1ccc(-c2coc3cc(O)c(CC=C(C)C)c(O)c3c2=O)cc1O,EC50,MT-4,MTT,IIIB,-,>100 µg/mL
O=C(OC[C@@H]1OC(=O)c2ccccc21)c1ccccc1,EC50,MT-4,-,-,-,>10 µM
COc1cc(OC)c2c(c1)C(=O)OC2,EC50,C8166,syncytia,IIIB,-,19.97 µg/mL

Repeating the final 8 entries:

structure,read-out,cell line,method,strain or isolate,changes,value
CC(C)=CCc1c(-c2ccc(O)cc2O)oc2c3c(cc(O)c2c1=O)OC(c1c(O)cc(O)c2c(=O)c(CC=C(C)C)c(-c4ccc(O)cc4O)oc12)C1C3C=C(C)CC1(C)C,EC50,MT-4,cytopathic effect / MTT,IIIB,-,>20 µg/mL
COC(=O)C(N)(O)Cc1c[nH]c2ccccc12,EC50,C8166,syncytia,IIIB,-,83.32 µg/mL
CC(C)=CCc1c(O)ccc(-c2coc3cc(O)cc(O)c3c2=O)c1O,EC50,MT-4,MTT,IIIB,-,>100 µg/mL
O=C1N(Cc2ccc(CO)cc2)[C@H](Cc2ccccc2)[C@H](O)[C@@H](O)[C@@H](Cc2ccccc2)N1Cc1ccc(CO)cc1,EC50,PBMC,p24,RF,-,<0.018 µM
Cc1cn([C@H]2C[C@H](N=[N+]=[N-])[C@@H](CO)O2)c(=O)[nH]c1=O,EC50,CEM + CEM-SS,XTT,NL4-3 1 (RT K101E),RT-K101E,0.002 µM
COc1ccc(-c2coc3cc(O)c(CC=C(C)C)c(O)c3c2=O)cc1O,EC50,MT-4,MTT,IIIB,-,>100 µg/mL
O=C(OC[C@@H]1OC(=O)c2ccccc21)c1ccccc1,EC50,MT-4,-,-,-,>10 µM
COc1cc(OC)c2c(c1)C(=O)OC2,EC50,C8166,syncytia,IIIB,-,19.97 µg/mL

a–b is a range or a potency band. ECn: concentration that inhibits the pathogen or its effect by n%. An empty or dashed field is not shown.